# Results: article PMC7348096
# Chains of the proteins cited; added tags and fusions are not shown. Lines headed by an entry give the natural chain unless they say otherwise; changes in a name come on top. Residues count along the entry.
# UniProt Q12879, 23-1464 limits assumed: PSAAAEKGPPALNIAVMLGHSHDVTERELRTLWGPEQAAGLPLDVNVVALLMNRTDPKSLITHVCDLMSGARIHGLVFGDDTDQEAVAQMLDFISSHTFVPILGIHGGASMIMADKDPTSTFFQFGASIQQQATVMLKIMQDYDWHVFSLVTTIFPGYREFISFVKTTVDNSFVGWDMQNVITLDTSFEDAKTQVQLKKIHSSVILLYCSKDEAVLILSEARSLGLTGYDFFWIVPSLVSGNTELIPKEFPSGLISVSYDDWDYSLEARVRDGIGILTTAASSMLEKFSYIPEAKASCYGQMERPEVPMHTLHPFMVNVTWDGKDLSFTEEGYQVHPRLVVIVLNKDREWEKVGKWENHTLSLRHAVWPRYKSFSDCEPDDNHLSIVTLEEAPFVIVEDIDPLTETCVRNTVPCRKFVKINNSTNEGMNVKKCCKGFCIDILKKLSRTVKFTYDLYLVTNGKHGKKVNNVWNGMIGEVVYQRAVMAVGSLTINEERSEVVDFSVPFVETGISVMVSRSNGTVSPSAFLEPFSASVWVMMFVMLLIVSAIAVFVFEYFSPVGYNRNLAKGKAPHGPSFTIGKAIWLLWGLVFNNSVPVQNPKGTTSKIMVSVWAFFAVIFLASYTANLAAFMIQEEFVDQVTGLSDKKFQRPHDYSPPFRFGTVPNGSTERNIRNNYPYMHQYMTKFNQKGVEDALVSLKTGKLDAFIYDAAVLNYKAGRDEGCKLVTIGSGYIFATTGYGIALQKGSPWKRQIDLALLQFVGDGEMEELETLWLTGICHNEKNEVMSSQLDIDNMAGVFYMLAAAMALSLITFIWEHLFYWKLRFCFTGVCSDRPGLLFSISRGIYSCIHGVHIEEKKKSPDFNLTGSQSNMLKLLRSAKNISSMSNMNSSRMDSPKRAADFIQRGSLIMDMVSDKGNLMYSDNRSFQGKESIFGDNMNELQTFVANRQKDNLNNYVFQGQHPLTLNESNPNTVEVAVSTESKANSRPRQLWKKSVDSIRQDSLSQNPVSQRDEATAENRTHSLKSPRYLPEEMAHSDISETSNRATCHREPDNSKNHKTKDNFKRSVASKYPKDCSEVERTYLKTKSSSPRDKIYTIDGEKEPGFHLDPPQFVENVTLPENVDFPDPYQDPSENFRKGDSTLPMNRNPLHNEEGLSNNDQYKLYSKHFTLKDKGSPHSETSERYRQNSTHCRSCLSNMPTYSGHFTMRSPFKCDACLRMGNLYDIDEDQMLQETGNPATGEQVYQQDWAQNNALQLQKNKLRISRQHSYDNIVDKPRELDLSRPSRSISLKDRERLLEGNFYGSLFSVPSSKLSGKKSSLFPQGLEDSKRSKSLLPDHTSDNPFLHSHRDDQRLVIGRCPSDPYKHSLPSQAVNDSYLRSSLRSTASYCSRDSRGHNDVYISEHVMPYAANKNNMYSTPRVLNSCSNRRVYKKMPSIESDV
# Molecular target: GluN1/N2A NMDA receptors (Homo sapiens, UniProt Q05586+Q12879)
# Assay: Flexstation Ca2+ measurements of NMDA/glycine evoked responses in Ltk‐ cells
# Conditions: NMDA 100 μM + glycine 50 μM; up to 100 μM
smiles,measurement,value
C1CCC(N2CCNCC2)CC1,concentration‐dependent inhibition of NMDA receptors,did not show concentration‐dependent inhibition
